Where a chain is given by its changes, count along the chain named.
Experiments:
Test in all cases: BLI
Details in all cases: both partners purified
fHbp m001928 = target: T1, fHbp m001928 (Neisseria meningitidis; fHbp …, chimera)
T1 chain: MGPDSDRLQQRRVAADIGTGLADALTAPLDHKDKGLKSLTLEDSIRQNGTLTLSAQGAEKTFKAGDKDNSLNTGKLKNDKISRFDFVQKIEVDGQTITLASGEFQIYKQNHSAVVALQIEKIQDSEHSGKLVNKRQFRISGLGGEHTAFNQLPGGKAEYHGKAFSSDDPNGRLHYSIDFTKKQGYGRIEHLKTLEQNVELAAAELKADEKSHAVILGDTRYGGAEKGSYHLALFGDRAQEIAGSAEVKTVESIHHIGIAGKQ

fHbp m002415 = target: T2, fHbp m002415 (Neisseria meningitidis, designed fHbp …, chimera)
T2 chain: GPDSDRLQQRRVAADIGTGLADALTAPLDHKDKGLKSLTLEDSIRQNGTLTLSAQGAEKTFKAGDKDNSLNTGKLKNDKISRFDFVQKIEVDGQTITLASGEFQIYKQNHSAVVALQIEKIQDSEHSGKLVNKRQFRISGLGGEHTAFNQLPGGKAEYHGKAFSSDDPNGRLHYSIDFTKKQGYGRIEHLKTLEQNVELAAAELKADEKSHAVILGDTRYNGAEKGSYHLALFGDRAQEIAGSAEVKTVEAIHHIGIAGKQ

fHbp m002420 = target: T3, fHbp m002420 (Neisseria meningitidis, designed fHbp …, chimera)
T3 chain: T2 chain with E250V, A251S

fHbp m001929 = target: T4, fHbp m001929 (Neisseria meningitidis; fHbp …, chimera)
T4 chain: T1 chain with S252A

fHbp m002416 = target: T5, fHbp m002416 (Neisseria meningitidis, designed fHbp …, chimera)
T5 construct: also called fHbp 2,416; Round 2 best mutant
T5 chain: T2 chain with E250N, A251G

fHbp m002332 = target: T6, fHbp m002332 (Neisseria meningitidis; fHbp …, chimera)
T6 chain: T1 chain with G222N, G223S, S252G

fHbp m002389 = target: T7, fHbp m002389 (Neisseria meningitidis; fHbp …, chimera)
T7 chain: T1 chain with G222N, T249S, E251N, S252G

B1: chimeric antibody hJAR5 (antibody, V domains shown)
VH: QVQMQQPGAELVKPGASVKLSCKASGYTFISYWMHWVKQRPGRGLEWIGRIAPDTGIIYYNEKFKNKATLTVDTPSSTAYMQLNSLTSEDSAVYYCARYLKYDGSTYRFDYWGQGTTLTVSS
VL: DIVMTQAAPSVPVTPGESVSISCRSSKSLLHSNGNTYLFWFLQRPGQSPQLLIYRMSNLASGVPDRFSGSGSGTSFTLRISRVEAEDVGVYYCMQHLEYPYTFGGGTKLEIK
notes: also called hJAR5-2; humanized JAR5; source: Expi293, purified (MabSelect SuRe, SEC); copies: 2 + 2
B1 was tested, and the koff (fHbp m001928) was 0.000299 s⁻¹, the kon (fHbp m002415) was 393200 ± 1960 M⁻¹ s⁻¹ and the koff (fHbp m002420) was 0.000175 s⁻¹. It also gave a kon (fHbp m002420) of 683900 ± 4300 M⁻¹ s⁻¹, a koff (fHbp m001929) of 0.000105 s⁻¹ and a kon (fHbp m002416) of 440100 ± 3820 M⁻¹ s⁻¹. For the same binder, the koff (fHbp m002332) was 0.000304 s⁻¹, the kon (fHbp m002332) was 458500 ± 1890 M⁻¹ s⁻¹ and the koff (fHbp m002389) was 0.000357 s⁻¹. It also gave a kon (fHbp m002389) of 462400 ± 1740 M⁻¹ s⁻¹.
